Tested on: humans
Experiment: Clinical pilot study of side effects on 80 humans (inhalation)
Settings: blood before the test, on 4th and 8th day

C=CCc1ccc(O)c(OC)c1.CCN(CC)CC(=O)Nc1c(C)cccc1C [novel compound, N-[N′-(carboxymethylenyl-2,6-dimethyl-aniline)-N,N-diethylammonium]-[2′-methoxy-4′-(2′-propenyl)]-phenolate]
liver function biochemical analysis from blood samples: no negative clinical or acute effects on the hepatic function

— patent US20240374736A1, “INHALED LIQUID FOR THE TREATMENT OF RESPIRATORY INFECTIONS IN HUMANS CAUSED BY PATHOGENS RESISTANT TO ANTIBIOTICS” (priority 2023, published 2024)
